According to patent publication US20090104233:
For at least one entry, the source does not settle the construct or the ends of the probe. For part of these data: Protein sequences can lack the tags named with them.

Key:
Assay in all cases: EMSA
[1] = target: T1, MBP-C/EBP-ToxTC (ToxT C-terminal domain) (Vibrio cholerae) (UniProt A5F384); conditions: purified recombinant protein; label: 32P 5' end (polynucleotide kinase)
T1 sequence: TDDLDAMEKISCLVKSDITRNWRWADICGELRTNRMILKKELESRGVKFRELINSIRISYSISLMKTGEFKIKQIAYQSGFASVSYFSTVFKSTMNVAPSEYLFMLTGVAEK

[2] = target: MBP-C/EBP-ToxTC S249A (Vibrio cholerae) (UniProt A5F384); conditions: 10 mM phosphate, 30 mM NaCl, pH 7.0, 37 C, purified recombinant protein, protein details: N-terminal MBP and C/EBP leucine zipper fusion, label: 32P 5' end (polynucleotide kinase)
[3] = target: MBP-C/EBP-ToxTC K203A (Vibrio cholerae) (UniProt A5F384); conditions: 10 mM phosphate, 30 mM NaCl, pH 7.0, 37 C, purified recombinant protein, protein details: N-terminal MBP and C/EBP leucine zipper fusion, label: 32P 5' end (polynucleotide kinase)
[4] = not significantly altered vs WT

Measured: binding result

TCAACGTAAGTGTGTTATTAAAAAAATAAAAAAACACAGCAAAAAATGAGATCTGTC (double strand) [tcpAp toxbox probe]
binds: [1] | [2]; [4] | [3]; [4]

TTTATGCTAACTCGTTAAATTTTTAAAAATAAATTTAACAAAATGTATAAAGCGATTT (double strand) [acfAp toxbox probe]
binds: [1] | [2]; binding pattern similar to WT | [3]; binding pattern similar to WT
